Reference: PMC3496871 (Molecular bioSystems, 2012)

Tested on: kanamycin A
Experiment: purified protein, by the assay type
Conditions: other: Eis_Mtb 0.25 μM; 500 μM AcCoA; apparent; pH 7.5; 25.0 °C

Eis_Mtb (Mycobacterium tuberculosis H37Rv)
Km: 330 ± 40 µM
kcat: 0.526 s⁻¹
kcat/Km: 1590 M⁻¹ s⁻¹
